Values from PubChem BioAssay AID624099 (ICCB-Longwood, 2012).
Test: 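Host factors E2 relies on to silence an HPV18 LCR reporter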 (primary screen). System: human C33A cervical carcinoma cells (HPV-negative) stably expressing BPV1 E2 and an HPV18 LCR luciferase reporter. Knock-down reagent: siRNA pool against human genes, 40 nM. Timing: 72 h. Detection: 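Per-well luciferase luminescence, z-scored on each plate against the plate mean and SD with control wells left out, then averaged across three replicate plates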. Reading the numbers: mean z-score and z-score: higher = stronger reporter signal, weaker E2 silencing. Call rule: 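Mean z ≥ 2 together with z ≥ 2 in two or more of the three replicates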.
Here is a random part of about 21,000 deposited reagents. 497 of them (2.4%) were called active. 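Higher z means weaker E2 silencing; only reporter increases were scored, and knock-downs that hurt cell survival may mask genuine repressor factors.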 Reagent sequences are not shown.

GTPBP10 (GeneID 85865) scored mean z-score 0.11; z-score, replicate A = -0.1; z-score, replicate B = 0.4; z-score, replicate C = 0.02; inactive.
With knock-down of IL17A (GeneID 3605), the record shows mean z-score 0.08; z-score, replicate A = 0.32; z-score, replicate B = -0.07; z-score, replicate C = -0.02; inactive.
LOC389657 (retired record) (GeneID 389657) showed mean z-score -0.23; z-score, replicate A = -0.67; z-score, replicate B = 0.01; z-score, replicate C = -0.03; inactive.
REXO1L2P (GeneID 100288527) scored mean z-score -0.56; z-score, replicate A = -0.75; z-score, replicate B = -0.26; z-score, replicate C = -0.65; inactive.
VNN1 (GeneID 8876) scored mean z-score -0.9; z-score, replicate A = -0.73; z-score, replicate B = -1.12; z-score, replicate C = -0.84; inactive.
PROSER3 (GeneID 148137) showed mean z-score 1.9; z-score, replicate A = 1.75; z-score, replicate B = 2.1; z-score, replicate C = 1.86; inactive.
UTP3 (GeneID 57050) showed mean z-score 1.65; z-score, replicate A = 1.7; z-score, replicate B = 1.52; z-score, replicate C = 1.72; inactive.
After knock-down of CCNYL2 (GeneID 414194), the record shows mean z-score -0.18; z-score, replicate A = -0.29; z-score, replicate B = 0.09; z-score, replicate C = -0.35; inactive.
After knock-down of LINC00683 (GeneID 400660), the record shows mean z-score -1.01; z-score, replicate A = -0.79; z-score, replicate B = -1.39; z-score, replicate C = -0.85; inactive.
FBXO17 (GeneID 115290) scored mean z-score -0.55; z-score, replicate A = -0.46; z-score, replicate B = -0.84; z-score, replicate C = -0.34; inactive.
SLC35G2 (GeneID 80723) showed mean z-score 0.33; z-score, replicate A = 0.18; z-score, replicate B = 0.6; z-score, replicate C = 0.19; inactive.
Depletion of PCBP1-AS1 (GeneID 400960) gave: mean z-score -2.05; z-score, replicate A = -1.88; z-score, replicate B = -1.94; z-score, replicate C = -2.32; inactive.
Against ARRB1 (GeneID 408), the entry reads mean z-score 0.74; z-score, replicate A = 0.6; z-score, replicate B = 1.11; z-score, replicate C = 0.52; inactive.
PM20D1 (GeneID 148811) gave mean z-score 1.64; z-score, replicate A = 1.67; z-score, replicate B = 1.72; z-score, replicate C = 1.52; inactive.
With knock-down of KRTAP5-2 (GeneID 440021), the record shows mean z-score -1.46; z-score, replicate A = -1.21; z-score, replicate B = -1.9; z-score, replicate C = -1.27; inactive.
Depletion of LINC00942 (GeneID 100292680) resulted in: mean z-score 0.57; z-score, replicate A = 0.3; z-score, replicate B = 0.33; z-score, replicate C = 1.09; inactive.
Against LRP1B (GeneID 53353) the deposit lists mean z-score -0.66; z-score, replicate A = -0.8; z-score, replicate B = -0.52; z-score, replicate C = -0.66; inactive.
After knock-down of JAGN1 (GeneID 84522), the record shows mean z-score -0.98; z-score, replicate A = -1.34; z-score, replicate B = -1; z-score, replicate C = -0.61; inactive.
Against NRF1 (GeneID 4899) the deposit lists mean z-score 1.15; z-score, replicate A = 1.23; z-score, replicate B = 1.22; z-score, replicate C = 1.02; inactive.
Against RPS27P4 (GeneID 389112), the entry reads mean z-score 1.74; z-score, replicate A = 1.79; z-score, replicate B = 1.8; z-score, replicate C = 1.65; inactive.
Against SSX4 (GeneID 6759), the values are mean z-score -0.75; z-score, replicate A = -0.76; z-score, replicate B = -0.97; z-score, replicate C = -0.51; inactive.

Reformatted: entries from further up.
| gene | mean z-score | z-score, replicate A | z-score, replicate B | z-score, replicate C | activity call |
| --- | --- | --- | --- | --- | --- |
| UTP3 (GeneID 57050) | 1.65 | 1.7 | 1.52 | 1.72 | inactive |
| CCNYL2 (GeneID 414194) | -0.18 | -0.29 | 0.09 | -0.35 | inactive |
| LINC00683 (GeneID 400660) | -1.01 | -0.79 | -1.39 | -0.85 | inactive |
